Measured values from several laboratories, pooled; numbers as filed in NIAID ChemDB.

Shared fields: tests in culture

Zone: diameter of growth inhibition. Percent inhibition refers to the dose given; in toxicity tests it is the harm to the cells. MIC50, MIC90 and the like: level of inhibition, or share of isolates inhibited. Rows are shuffled and stem from different studies. Blank or dashed fields: not listed here.

structure	organism	strain	changes	read by	conditions	measure	dose	result
CCC(C)n1ncn(-c2ccc(N3CCN(c4ccc(OC[C@H]5CO[C@](Cn6cncn6)(c6ccc(Cl)cc6Cl)O5)cc4)CC3)cc2)c1=O	Aspergillus terreus	-	-	broth dilution	-	MIC50	-	0.13 µg/mL
Clc1ccccc1C(c1ccccc1)(c1ccccc1)n1ccnc1	Aspergillus ochraceus	-	-	agar diffusion	-	zone	10 µg/disc	30 mm
C[C@@H](c1ncncc1F)[C@](O)(Cn1cncn1)c1ccc(F)cc1F	Aspergillus lentulus	-	-	broth dilution	-	MIC50	-	2 µg/mL
O=C(NN=CC1C(c2ccccc2)=Nc2ccccc21)N1c2ccccc2C=Cc2ccccc21	Aspergillus terreus	MTCC-1782	-	agar diffusion	-	zone	1000 µg/mL	5 mm
OO	Aspergillus fumigatus	AF293	-	agar	-	MIC99	-	8000 µM
NC(=S)N/N=C(/C=C/c1ccc([N+](=O)[O-])cc1)c1ccccc1	Aspergillus parasiticus	MCT 00334	-	broth dilution	-	MIC	-	500 µg/mL
CCC(C)n1ncn(-c2ccc(N3CCN(c4ccc(OC[C@H]5CO[C@](Cn6cncn6)(c6ccc(Cl)cc6Cl)O5)cc4)CC3)cc2)c1=O	Aspergillus fumigatus	AF293	mpkC	broth dilution	-	inhibition	2 µg/mL	99.65%
O=C(NN1C(=O)CSC1C1C(c2ccccc2)=Nc2ccccc21)N1c2ccccc2C=Cc2ccccc21	Aspergillus terreus	MTCC-1782	-	agar diffusion	-	zone	750 µg/mL	6 mm
CCCCCCCCOC(=O)[C@]1(O)C[C@@H](O)[C@@H](O)[C@H](OC(=O)/C=C/c2ccc(O)c(O)c2)C1	Aspergillus parasiticus	UMIP 1142.76	-	absorbance	-	MIC80	-	1000 µg/mL
C[C@@H](c1ncncc1F)[C@](O)(Cn1cncn1)c1ccc(F)cc1F	Aspergillus terreus	11	-	broth dilution	-	MIC	-	1 µg/mL
CC(C)CC(O)C(=O)O	Aspergillus fumigatus	MRCM 32208	-	broth dilution / visual reading	-	MFC100	-	18000 µg/mL
Nc1ncccc1-c1cc(Cc2ccc(COc3ccccn3)cc2)no1	Aspergillus flavus	IFM50915	-	broth dilution	30% human serum	MIC50	-	0.5 µg/mL
NC(=S)NN=Cc1cccs1	Aspergillus parasiticus	MCT 00334	-	broth dilution	-	MIC	-	125 µg/mL
C[C@@H]1C/C=C/C=C/C=C/C=C/[C@H](OC2O[C@H](C)[C@@H](O)[C@H](N)[C@@H]2O)CC2O[C@](O)(C[C@@H](O)C[C@H]3O[C@@H]3/C=C/C(=O)O1)C[C@H](O)[C@H]2C(=O)O	Aspergillus versicolor	Species complex	-	-	-	MIC50	-	8 µg/mL
Cc1ccc2c(c1)C(C=NNC(=O)N1c3ccccc3C=Cc3ccccc31)C(c1ccccc1)=N2	Aspergillus terreus	MTCC-1782	-	agar diffusion	-	zone	1000 µg/mL	10 mm
CCC(C)n1ncn(-c2ccc(N3CCN(c4ccc(OC[C@H]5CO[C@](Cn6cncn6)(c6ccc(Cl)cc6Cl)O5)cc4)CC3)cc2)c1=O	Aspergillus terreus	MRCM 26158	-	broth dilution / visual reading	-	MIC100	-	0.25 µg/mL
CCCCCOc1ccc(-c2ccc(-c3ccc(C(=O)N[C@H]4C[C@@H](O)[C@@H](O)NC(=O)[C@@H]5[C@@H](O)[C@@H](C)CN5C(=O)[C@H]([C@H](C)O)NC(=O)[C@H]([C@H](O)[C@@H](O)c5ccc(O)cc5)NC(=O)[C@@H]5C[C@@H](O)CN5C(=O)[C@H]([C@H](C)O)NC4=O)cc3)cc2)cc1	Aspergillus fumigatus	Isolate AF210	-	-	-	MFC	-	0.03 µg/mL
Cc1ccc(C(C)C)cc1O	Aspergillus fumigatus	F05	-	-	-	MLC	-	0.32 µg/mL

For reference, 2 entries again:

structure,organism,strain,changes,read by,conditions,measure,dose,result
NC(=S)N/N=C(/C=C/c1ccc([N+](=O)[O-])cc1)c1ccccc1,Aspergillus parasiticus,MCT 00334,-,broth dilution,-,MIC,-,500 µg/mL
OO,Aspergillus fumigatus,AF293,-,agar,-,MIC99,-,8000 µM